Anti-infective test results gathered from many reports (values: NIAID ChemDB through PubChem).

Shared fields: tests in culture; organism: Mycobacterium avium intracellulare

An empty or dashed field is not shown.

smiles,strain or isolate,method,read-out,value
O/N=C/c1cccc[n+]1Cc1ccc(Br)s1.[Cl-],-,resazurin,EC50,>20 µg/mL
COc1c(N2CCNC(C)C2)c(F)cc2c(=O)c(C(=O)O)cn(C3CC3)c12,31 strains,-,MIC50,6.25 µg/mL
Cc1c(F)c(N2CCNC(C)C2)cc2c1c(=O)c(C(=O)O)cn2C1CC1,31 strains,-,MIC50,12.5 µg/mL
ON=Cc1ccc[n+](Cc2csc3ccccc23)c1.[Cl-],-,resazurin,EC50,>20 µg/mL
CO[C@H]1/C=C/O[C@@]2(C)Oc3c(C)c(O)c4c(O)c(c5c(c4c3C2=O)NC2(CCN(CC(C)C)CC2)N=5)=NC(=O)/C(C)=C\C=C\[C@H](C)[C@H](O)[C@@H](C)[C@@H](O)[C@@H](C)[C@H](OC(C)=O)[C@@H]1C,CIPT 140310054,-,MIC,0.05 µg/mL
CC1COc2c(N3CCN(C)CC3)c(F)cc3c(=O)c(C(=O)O)cn1c23,31 strains,-,MIC90,50 µg/mL
O/N=C/c1cccc[n+]1Cc1ccc(C[n+]2ccccc2/C=N/O)s1.[Cl-].[Cl-],-,resazurin,EC50,>20 µg/mL
C[C@@H]1CN(c2c(F)c(N)c3c(=O)c(C(=O)O)cn(C4CC4)c3c2F)C[C@H](C)N1,292 strains,-,Median MIC90,2 µg/mL
CCCCCCCC/C=C/CCCCCCCCC(=O)Oc1c(OC)cc2ccnc3c2c1N(C)C=C3,-,-,EC50,0.2 µg/mL
CC1COc2c(N3CCN(C)CC3)c(F)cc3c(=O)c(C(=O)O)cn1c23,31 strains,-,MIC50,25 µg/mL
Cc1onc(-c2ccccc2Cl)c1C(=O)N[C@@H]1C(=O)N2[C@@H]1SC(C)(C)[C@@H]2C(=O)O,CIPT 140310001,-,MIC,75 µg/mL
NC(=O)c1cnccn1,ATCC 13950,-,MBC,>200 µg/mL
Cc1cc(C[n+]2cccc(C=NO)c2)on1.[Br-],-,resazurin,EC50,>20 µg/mL
COc1cccc(C(=O)Oc2c(OC)cc3ccnc4c3c2N(C)C=C4)c1,-,-,EC50,10 µg/mL
CC[C@H]1OC(=O)[C@H](C)[C@@H](O[C@H]2C[C@@](C)(OC)[C@@H](O)[C@H](C)O2)[C@H](C)[C@@H](O[C@@H]2O[C@H](C)C[C@H](N(C)C)[C@H]2O)[C@](C)(OC)C[C@@H](C)C(=O)[C@H](C)[C@@H](O)[C@]1(C)O,17 strains,-,MIC90,12.5 µg/mL
COc1cc(NC(C)CCCN)c2nc(C(C)(C)C)cc(C)c2c1Oc1cccc(C(F)(F)F)c1,-,-,EC50,3 µg/mL
CN[C@@H]1[C@H](O[C@H]2[C@H](O[C@H]3[C@H](O)[C@@H](O)[C@H](N=C(N)N)[C@@H](O)[C@@H]3N=C(N)N)O[C@@H](C)[C@]2(O)C=O)O[C@@H](CO)[C@H](O)[C@H]1O,CIPT 140310019,-,MIC,>50 µg/mL
COc1cc2ccnc3c2c(c1OC(=O)c1ccccc1C)N(C)C=C3,-,-,EC50,5 µg/mL
C[C@@H]1CN(c2c(F)c(N)c3c(=O)c(C(=O)O)cn(C4CC4)c3c2F)C[C@H](C)N1,ATCC 13950,-,MBC,0.6 µg/mL
C[C@H]1COc2c(N3CCN(C)CC3)c(F)cc3c(=O)c(C(=O)O)cn1c23,17 strains,-,MIC90,25 µg/mL
CC[C@H]1OC(=O)[C@H](C)[C@@H](OC2C[C@@](C)(OC)[C@@H](O)[C@H](C)O2)[C@H](C)[C@@H](O[C@@H]2O[C@H](C)C[C@H](N(C)C)[C@H]2O)C(C)(O)C[C@@H](C)/C(=N\OCc2ccccc2)[C@H](C)[C@@H](O)[C@]1(C)O,20066 (clarithromycin-susceptible),-,MIC,6.25 µg/mL
C[C@H]1COc2c(N3CCN(C)CC3)c(F)cc3c(=O)c(C(=O)O)cn1c23,31 strains,-,MIC50,25 µg/mL
CO[C@H]1/C=C/O[C@@]2(C)Oc3c(C)c(=O)c4c(O)c(c5oc6cc(N7CCCCC7)ccc6nc5c4c3C2=O)NC(=O)/C(C)=C\C=C\[C@H](C)[C@H](O)[C@@H](C)[C@@H](O)[C@@H](C)[C@H](OC(C)=O)[C@@H]1C,-,-,MIC50,0.6 µg/mL
CC[C@H]1OC(=O)[C@H](C)[C@@H](O[C@H]2C[C@@](C)(OC)[C@@H](OC(C)=O)[C@H](C)O2)[C@H](C)[C@@H](O[C@@H]2O[C@H](C)C[C@H](N(C)C)[C@H]2OC(=O)NN2CCCC2)C(C)(O)C[C@@H](C)/C(=N\OCCCC2CCCCC2)[C@H](C)[C@@H](O)[C@]1(C)O,20066 (clarithromycin-susceptible),-,MIC,0.39 µg/mL
COc1c(O)c2c(=O)cc(OC)c3c4c(OC)cc(=O)c5c(O)c(OC)c6c(c(c1CC(C)=C6OC(C)=O)c23)c54,-,-,EC50,22.5 µg/mL
CC[C@H]1OC(=O)[C@H](C)[C@@H](O[C@H]2C[C@@](C)(OC)[C@@H](OC(C)=O)[C@H](C)O2)[C@H](C)[C@@H](O[C@@H]2O[C@H](C)C[C@H](N(C)C)[C@H]2O)C(C)(O)C[C@@H](C)/C(=N\OCCCC2CCCCC2)[C@H](C)[C@@H](O)[C@]1(C)O,12 strains,-,MIC50,1.56 µg/mL
COc1cc2ccnc3c2c(c1OC(=O)c1ccc(C(C)(C)C)cc1)N(C)C=C3,-,-,EC50,0.5 µg/mL
CO[C@H]1/C=C/O[C@@]2(C)Oc3c(C)c(O)c4c(O)c(c(/C=N/N5CCN(C6CCCC6)CC5)c(O)c4c3C2=O)NC(=O)/C(C)=C\C=C\[C@H](C)[C@H](O)[C@@H](C)[C@@H](O)[C@@H](C)[C@H](OC(C)=O)[C@@H]1C,17 strains,-,MIC90,25 µg/mL
CC[C@H]1OC(=O)[C@H](C)[C@@H](O[C@H]2C[C@@](C)(OC)[C@@H](OC(C)=O)[C@H](C)O2)[C@H](C)[C@@H](O[C@@H]2O[C@H](C)C[C@H](N(C)C)[C@H]2OC(=O)NNCc2cccnc2)C(C)(O)C[C@@H](C)/C(=N\OCCCC2CCCCC2)[C@H](C)[C@@H](O)[C@]1(C)O,20066 (clarithromycin-susceptible),-,MIC,0.78 µg/mL
CO[C@H]1/C=C/O[C@@]2(C)Oc3c(C)c(O)c4c(O)c(c(/C=N/N5CCN(C6CCCC6)CC5)c(O)c4c3C2=O)NC(=O)/C(C)=C\C=C\[C@H](C)[C@H](O)[C@@H](C)[C@@H](O)[C@@H](C)[C@H](OC(C)=O)[C@@H]1C,141,-,MIC,2 µg/mL
CO[C@H]1/C=C/O[C@@]2(C)Oc3c(C)c(O)c4c(=O)c(c5oc6cc(N7CCN(CC(C)C)CC7)cc(=O)c6nc5c4c3=C2O)NC(=O)/C(C)=C\C=C\[C@H](C)[C@H](O)[C@@H](C)[C@@H](O)[C@@H](C)[C@H](OC(C)=O)[C@@H]1C,N-260,-,MBC,1 µg/mL
CN[C@@H]1[C@H](O[C@H]2[C@H](O[C@H]3[C@H](O)[C@@H](O)[C@H](N=C(N)N)[C@@H](O)[C@@H]3N=C(N)N)O[C@@H](C)[C@]2(O)C=O)O[C@@H](CO)[C@H](O)[C@H]1O,N-486 (HIV-),-,MIC,4 µg/mL
CC1COc2c(N3CCN(C)CC3)c(F)cc3c(=O)c(C(=O)O)cn1c23,17 strains,-,MIC90,50 µg/mL
CN1CCN(c2c(F)cc3c(=O)c(C(=O)O)cn(CCF)c3c2F)CC1,-,-,MIC50,25 µg/mL
COc1cc2ccnc3c2c(c1OC(=O)N1CCCC1)N(C)C=C3,-,-,EC50,>15 µg/mL
C/C=C(\C)C(=O)Oc1ccc([C@H]2O[C@@H]2C)cc1,-,-,EC50,1.29 µg/mL
COc1cc2ccnc3c2c(c1OC(=O)c1cc(F)ccc1F)N(C)C=C3,-,-,EC50,>15 µg/mL
C[C@@H]1CN(c2c(F)c(N)c3c(=O)c(C(=O)O)cn(C4CC4)c3c2F)C[C@H](C)N1,17 strains,-,MIC90,6.25 µg/mL
CC[C@H]1OC(=O)[C@H](C)[C@@H](O[C@H]2C[C@@](C)(OC)[C@@H](OC(C)=O)[C@H](C)O2)[C@H](C)[C@@H](O[C@@H]2O[C@H](C)C[C@H](N(C)C)[C@H]2O)C(C)(O)C[C@@H](C)/C(=N\OCC2CCCCC2)[C@H](C)[C@@H](O)[C@]1(C)O,20066 (clarithromycin-susceptible),-,MIC,3.13 µg/mL
CN1CCN(c2c(F)cc3c(=O)c(C(=O)O)cn(CCF)c3c2F)CC1,N-260,-,MIC90,100 µg/mL
C/C=C/c1ccc(OC(=O)/C(C)=C/C)cc1,ATCC 19709,-,EC50,15 µg/mL
CO[C@H]1/C=C/O[C@@]2(C)Oc3c(C)c(=O)c4c(O)c(c5oc6cc(N7CCCC7)ccc6nc5c4c3C2=O)NC(=O)/C(C)=C\C=C\[C@H](C)[C@H](O)[C@@H](C)[C@@H](O)[C@@H](C)[C@H](OC(C)=O)[C@@H]1C,-,-,MIC90,2.5 µg/mL
CC[C@H]1OC(=O)[C@H](C)[C@@H](O[C@H]2C[C@@](C)(OC)[C@@H](OC(C)=O)[C@H](C)O2)[C@H](C)[C@@H](O[C@@H]2O[C@H](C)C[C@H](N(C)C)[C@H]2O)C(C)(O)C[C@@H](C)/C(=N\OCCCCCc2ccccc2)[C@H](C)[C@@H](O)[C@]1(C)O,20066 (clarithromycin-susceptible),-,MIC,1.56 µg/mL
CC1COc2c(N3CCN(C)CC3)c(F)cc3c(=O)c(C(=O)O)cn1c23,31 strains,-,MIC50,25 µg/mL
CCCCCCNNC(=O)O[C@H]1[C@H](O[C@@H]2[C@@H](C)[C@H](O[C@H]3C[C@@](C)(OC)[C@@H](OC(C)=O)[C@H](C)O3)[C@@H](C)C(=O)O[C@H](CC)[C@@](C)(O)[C@H](O)[C@@H](C)/C(=N/OCCCC3CCCCC3)[C@H](C)CC2(C)O)O[C@H](C)C[C@@H]1N(C)C,20066 (clarithromycin-susceptible),-,MIC,1.56 µg/mL
CCC(C)C(=O)Oc1ccc(OC)cc1C1OC1C,ATCC 19709,-,EC50,1.5 µg/mL
CC[C@H]1OC(=O)[C@H](C)[C@@H](O[C@H]2C[C@@](C)(OC)[C@@H](OC(C)=O)[C@H](C)O2)[C@H](C)[C@@H](O[C@@H]2O[C@H](C)C[C@H](N(C)C)[C@H]2OC(=O)NNCc2ccccc2[N+](=O)[O-])C(C)(O)C[C@@H](C)/C(=N\OCCCC2CCCCC2)[C@H](C)[C@@H](O)[C@]1(C)O,20066 (clarithromycin-susceptible),-,MIC,0.39 µg/mL
CC1(C)S[C@@H]2[C@H](NC(=O)[C@H](C(=O)[O-])c3ccsc3)C(=O)N2[C@H]1C(=O)[O-].[Na+].[Na+],CIPT 140310054,-,MIC,>75 µg/mL

For reference, 5 entries again:

smiles,strain or isolate,method,read-out,value
C[C@@H]1CN(c2c(F)c(N)c3c(=O)c(C(=O)O)cn(C4CC4)c3c2F)C[C@H](C)N1,ATCC 13950,-,MBC,0.6 µg/mL
CCCCCCCC/C=C/CCCCCCCCC(=O)Oc1c(OC)cc2ccnc3c2c1N(C)C=C3,-,-,EC50,0.2 µg/mL
COc1c(N2CCNC(C)C2)c(F)cc2c(=O)c(C(=O)O)cn(C3CC3)c12,31 strains,-,MIC50,6.25 µg/mL
COc1cccc(C(=O)Oc2c(OC)cc3ccnc4c3c2N(C)C=C4)c1,-,-,EC50,10 µg/mL
C[C@H]1COc2c(N3CCN(C)CC3)c(F)cc3c(=O)c(C(=O)O)cn1c23,17 strains,-,MIC90,25 µg/mL

ECn is the concentration giving n% inhibition of infection, replication or growth. MIC50, MIC90 and the like: level of inhibition, or share of isolates inhibited. Lines come from different laboratories, so protocols vary.